Target: T1, cell-to-cell fusion mediated by HIV-1 Env and CD4 (Human immunodeficiency virus type 1 group M subtype B, UniProt P04578)
T1 construct: expressed in transfected cells; host or cells: HeLa CD4 LTR beta-gal cells (CD4) co-cultured with HL2/3 cells (HIV-1 Env)
Type: cell-based
Conditions: HeLa CD4 LTR […]-gal + HL2/3 cells
Procedure: The fusion assay assesses the ability of compounds to block cell-to-cell fusion mediated by HIV-1 Env and CD4 expressed on separate cells. This assay is sensitive to inhibitors of both the gp120/CD4 interaction and inhibitors of the X4 coreceptor. First, 5×10^3 HeLa CD4 LTR […]-gal cells are placed in microtiter wells and incubated overnight. The following day the media is removed and the HeLa CD4 LTR […]-gal cells are incubated for 1 h at 37° C. in fresh media with test compound. Following the incubation 5×10^3 HL2/3 cells are added and the incubation continued for 40 to 48 h. At 40 to 48 h […]-galactosidase enzyme expression is detected by chemiluminescence (Tropix Gal-screen™, Tropix, Bedford, Mass.). Compound toxicity is monitored on a sister plate using XTT dye reduction.

## BHAlyslys2lys4lys8lys16[NH—CO—CH2)O-3,6-Naphthyl-(SO3Na)2]32 [SPL-7013]
  Fusion Assay IC50: 0.71 µg/mL

— US8158575B2, “Agent for the prevention and treatment of sexually transmitted diseases-I” (priority 2001, dated 2012)
